Amino acid sequences for entries named in this document (tags omitted). A change or cut given only in a name is not applied to a line headed by its entry.
UniProt P12389: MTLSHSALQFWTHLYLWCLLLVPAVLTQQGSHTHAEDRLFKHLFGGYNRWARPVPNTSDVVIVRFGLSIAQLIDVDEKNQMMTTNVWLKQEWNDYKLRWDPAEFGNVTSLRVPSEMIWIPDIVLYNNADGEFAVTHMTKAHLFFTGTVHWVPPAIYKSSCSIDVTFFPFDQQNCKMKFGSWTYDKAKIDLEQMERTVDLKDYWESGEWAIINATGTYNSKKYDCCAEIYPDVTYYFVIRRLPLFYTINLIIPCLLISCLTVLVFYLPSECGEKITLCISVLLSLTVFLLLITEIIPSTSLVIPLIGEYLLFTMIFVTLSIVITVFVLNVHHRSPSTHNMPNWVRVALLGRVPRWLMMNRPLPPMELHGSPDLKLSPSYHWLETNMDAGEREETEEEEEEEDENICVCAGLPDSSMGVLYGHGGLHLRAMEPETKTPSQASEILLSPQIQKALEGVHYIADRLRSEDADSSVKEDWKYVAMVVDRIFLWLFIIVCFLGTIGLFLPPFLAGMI
UniProt P12392, whole entry, looked up: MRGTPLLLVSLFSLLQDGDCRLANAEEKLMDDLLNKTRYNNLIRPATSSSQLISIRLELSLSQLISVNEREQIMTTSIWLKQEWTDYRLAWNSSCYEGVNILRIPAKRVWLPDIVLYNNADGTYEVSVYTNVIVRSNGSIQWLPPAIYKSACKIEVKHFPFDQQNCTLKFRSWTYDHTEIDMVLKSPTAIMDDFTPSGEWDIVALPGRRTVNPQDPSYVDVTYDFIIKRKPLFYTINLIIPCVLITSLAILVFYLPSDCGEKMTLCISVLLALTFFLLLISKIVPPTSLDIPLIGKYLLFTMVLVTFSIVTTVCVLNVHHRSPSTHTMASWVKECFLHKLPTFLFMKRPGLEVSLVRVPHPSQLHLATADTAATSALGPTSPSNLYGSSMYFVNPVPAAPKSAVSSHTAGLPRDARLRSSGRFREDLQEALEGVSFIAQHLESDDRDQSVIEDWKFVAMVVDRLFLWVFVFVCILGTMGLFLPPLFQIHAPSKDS
UniProt P12390, whole entry, looked up: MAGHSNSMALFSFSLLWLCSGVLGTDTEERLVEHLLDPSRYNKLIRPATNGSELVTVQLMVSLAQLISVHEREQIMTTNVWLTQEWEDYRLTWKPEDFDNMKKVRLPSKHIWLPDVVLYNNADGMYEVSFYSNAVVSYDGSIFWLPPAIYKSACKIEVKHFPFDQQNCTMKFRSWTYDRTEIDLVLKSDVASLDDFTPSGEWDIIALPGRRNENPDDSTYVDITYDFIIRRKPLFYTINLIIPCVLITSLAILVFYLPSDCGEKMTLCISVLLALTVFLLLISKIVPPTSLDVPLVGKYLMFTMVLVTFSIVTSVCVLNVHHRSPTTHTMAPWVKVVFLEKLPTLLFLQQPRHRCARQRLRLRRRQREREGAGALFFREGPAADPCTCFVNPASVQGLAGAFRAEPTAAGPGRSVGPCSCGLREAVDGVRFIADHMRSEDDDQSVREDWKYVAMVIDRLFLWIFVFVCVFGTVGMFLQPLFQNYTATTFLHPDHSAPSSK
UniProt P09483: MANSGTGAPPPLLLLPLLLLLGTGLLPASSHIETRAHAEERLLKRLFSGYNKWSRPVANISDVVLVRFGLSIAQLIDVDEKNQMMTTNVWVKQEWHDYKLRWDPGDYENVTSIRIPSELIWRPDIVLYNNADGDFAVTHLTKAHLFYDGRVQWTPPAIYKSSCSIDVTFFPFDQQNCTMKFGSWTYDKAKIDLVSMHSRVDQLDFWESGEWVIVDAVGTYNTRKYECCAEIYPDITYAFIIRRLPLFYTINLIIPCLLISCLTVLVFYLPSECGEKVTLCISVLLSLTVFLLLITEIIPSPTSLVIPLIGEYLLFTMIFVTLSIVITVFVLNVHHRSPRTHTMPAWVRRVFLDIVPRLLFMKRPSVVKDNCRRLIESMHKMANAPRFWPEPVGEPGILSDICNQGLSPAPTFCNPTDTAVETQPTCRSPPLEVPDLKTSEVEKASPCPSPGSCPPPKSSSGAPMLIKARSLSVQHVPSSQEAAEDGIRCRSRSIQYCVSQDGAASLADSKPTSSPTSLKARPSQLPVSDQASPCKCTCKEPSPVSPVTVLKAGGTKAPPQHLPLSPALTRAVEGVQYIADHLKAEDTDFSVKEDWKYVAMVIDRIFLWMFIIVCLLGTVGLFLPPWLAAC
UniProt Q05941, whole entry, looked up: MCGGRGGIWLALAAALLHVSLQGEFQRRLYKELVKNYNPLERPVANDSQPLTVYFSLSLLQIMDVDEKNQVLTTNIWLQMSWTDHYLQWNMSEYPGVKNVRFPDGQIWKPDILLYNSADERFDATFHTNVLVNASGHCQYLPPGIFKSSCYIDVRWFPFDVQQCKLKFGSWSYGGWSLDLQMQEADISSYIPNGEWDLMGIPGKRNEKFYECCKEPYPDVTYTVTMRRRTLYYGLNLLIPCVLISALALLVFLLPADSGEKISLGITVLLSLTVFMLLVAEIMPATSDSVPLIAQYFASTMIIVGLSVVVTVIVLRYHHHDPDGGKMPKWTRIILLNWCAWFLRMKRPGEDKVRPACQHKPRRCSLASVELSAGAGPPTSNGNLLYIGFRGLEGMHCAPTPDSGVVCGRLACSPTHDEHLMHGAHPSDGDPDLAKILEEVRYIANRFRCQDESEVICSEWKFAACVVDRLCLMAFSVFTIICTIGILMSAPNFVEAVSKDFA
UniProt P04757, whole entry, looked up: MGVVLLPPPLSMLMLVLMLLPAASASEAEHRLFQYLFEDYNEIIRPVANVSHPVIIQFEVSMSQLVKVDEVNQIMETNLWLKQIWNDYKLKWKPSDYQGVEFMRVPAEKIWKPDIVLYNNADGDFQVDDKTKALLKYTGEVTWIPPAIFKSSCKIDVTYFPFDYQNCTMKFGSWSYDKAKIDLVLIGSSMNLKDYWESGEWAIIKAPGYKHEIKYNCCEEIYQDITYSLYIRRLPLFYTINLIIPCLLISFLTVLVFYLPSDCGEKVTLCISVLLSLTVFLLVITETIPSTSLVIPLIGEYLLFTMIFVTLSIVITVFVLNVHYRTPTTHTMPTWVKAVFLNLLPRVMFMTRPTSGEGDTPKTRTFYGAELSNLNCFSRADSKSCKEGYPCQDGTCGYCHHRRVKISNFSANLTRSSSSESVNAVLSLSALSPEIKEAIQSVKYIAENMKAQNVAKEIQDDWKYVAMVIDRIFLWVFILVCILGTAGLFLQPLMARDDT
UniProt P43144: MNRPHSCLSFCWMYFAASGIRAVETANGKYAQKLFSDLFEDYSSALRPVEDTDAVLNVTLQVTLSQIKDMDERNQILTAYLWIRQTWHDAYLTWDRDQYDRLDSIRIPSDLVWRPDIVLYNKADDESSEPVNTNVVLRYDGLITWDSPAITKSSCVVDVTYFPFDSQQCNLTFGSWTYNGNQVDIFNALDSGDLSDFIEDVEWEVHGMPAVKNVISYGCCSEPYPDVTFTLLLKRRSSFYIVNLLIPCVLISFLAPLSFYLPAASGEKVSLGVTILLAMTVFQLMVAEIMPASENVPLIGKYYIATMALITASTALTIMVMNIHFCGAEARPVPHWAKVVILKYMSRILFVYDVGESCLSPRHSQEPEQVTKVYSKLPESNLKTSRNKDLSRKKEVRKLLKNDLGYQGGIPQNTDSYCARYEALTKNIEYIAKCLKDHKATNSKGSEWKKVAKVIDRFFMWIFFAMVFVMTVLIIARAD
UniProt Q9JLB5: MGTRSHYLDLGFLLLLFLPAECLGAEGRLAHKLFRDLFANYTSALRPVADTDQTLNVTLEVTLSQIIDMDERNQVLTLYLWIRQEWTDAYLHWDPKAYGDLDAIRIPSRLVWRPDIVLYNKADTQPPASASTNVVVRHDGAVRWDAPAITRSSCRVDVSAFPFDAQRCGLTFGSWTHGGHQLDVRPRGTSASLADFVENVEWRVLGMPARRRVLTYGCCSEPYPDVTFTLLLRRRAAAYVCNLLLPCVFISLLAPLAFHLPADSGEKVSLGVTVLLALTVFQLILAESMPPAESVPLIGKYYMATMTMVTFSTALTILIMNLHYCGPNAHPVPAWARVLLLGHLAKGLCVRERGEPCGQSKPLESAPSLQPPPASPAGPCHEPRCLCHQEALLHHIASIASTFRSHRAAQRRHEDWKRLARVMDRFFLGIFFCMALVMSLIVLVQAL
UniProt P43143, whole entry, looked up: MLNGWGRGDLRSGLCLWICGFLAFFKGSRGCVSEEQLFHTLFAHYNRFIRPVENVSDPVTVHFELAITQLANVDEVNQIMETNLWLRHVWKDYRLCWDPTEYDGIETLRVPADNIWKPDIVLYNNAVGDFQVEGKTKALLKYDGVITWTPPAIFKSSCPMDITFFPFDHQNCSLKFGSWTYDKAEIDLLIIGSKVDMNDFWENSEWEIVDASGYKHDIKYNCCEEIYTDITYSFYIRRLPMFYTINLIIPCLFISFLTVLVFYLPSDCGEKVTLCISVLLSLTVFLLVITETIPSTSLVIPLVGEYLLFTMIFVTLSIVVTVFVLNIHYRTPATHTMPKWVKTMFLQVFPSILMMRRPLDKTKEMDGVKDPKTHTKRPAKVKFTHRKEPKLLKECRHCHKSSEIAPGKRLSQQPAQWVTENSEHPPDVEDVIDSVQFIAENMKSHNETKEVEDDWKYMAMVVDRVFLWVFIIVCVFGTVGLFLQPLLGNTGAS

According to ChEMBL document CHEMBL4196223 (J Med Chem, 2018):

Tests used:
Rattus norvegicus = species on record: Rattus norvegicus; assay: Selectivity index, ratio of IC50 for antagonist activity at rat alpha6/alpha3beta4 nAChR expressed in Xenopus laevis oocytes to IC50 for antagonist activity at rat alpha3beta4 nAChR expressed in Xenopus laevis oocytes; assay type: cell-based
[1] = biological target: Neuronal acetylcholine receptor; alpha2/beta4 (Rattus norvegicus) (UniProt P12389+P12392); assay: Antagonist activity at rat alpha2beta4 nACHR expressed in Xenopus laevis oocytes assessed as inhibition of acetyl choline-induced membrane currents at 10 uM pre-incubated for 5 mins prior to acetyl choline pulse at -70 mV potential by two-electrode voltage clamp assay
[2] = biological target: Neuronal acetylcholine receptor; alpha2/beta2 (Rattus norvegicus) (UniProt P12389+P12390); assay: Antagonist activity at rat alpha2beta2 nACHR expressed in Xenopus laevis oocytes assessed as inhibition of acetyl choline-induced membrane currents at 10 uM pre-incubated for 5 mins prior to acetyl choline pulse at -70 mV potential by two-electrode voltage clamp assay
[3] = biological target: Neuronal acetylcholine receptor; alpha4/beta4 (Rattus norvegicus) (UniProt P09483+P12392); assay: Antagonist activity at rat alpha4beta4 nACHR expressed in Xenopus laevis oocytes assessed as inhibition of acetyl choline-induced membrane currents at 10 uM pre-incubated for 5 mins prior to acetyl choline pulse at -70 mV potential by two-electrode voltage clamp assay
[4] = biological target: Neuronal acetylcholine receptor subunit alpha-7 (Rattus norvegicus) (UniProt Q05941); assay: Antagonist activity at rat alpha7 nACHR expressed in Xenopus laevis oocytes assessed as inhibition of acetyl choline-induced membrane currents at 10 uM pre-incubated for 5 mins prior to acetyl choline pulse at -70 mV potential by two-electrode voltage clamp assay
[5] = biological target: Neuronal acetylcholine receptor; alpha3/beta2 (Rattus norvegicus) (UniProt P04757+P12390); assay: Antagonist activity at rat alpha3beta2 nACHR expressed in Xenopus laevis oocytes assessed as inhibition of acetyl choline-induced membrane currents at 10 uM pre-incubated for 5 mins prior to acetyl choline pulse at -70 mV potential by two-electrode voltage clamp assay
[6] = biological target: Nicotinic acetylcholine receptor alpha9/alpha10 (Rattus norvegicus) (UniProt P43144+Q9JLB5); assay: Antagonist activity at rat alpha9alpha10 nACHR expressed in Xenopus laevis oocytes assessed as inhibition of acetyl choline-induced membrane currents at 10 uM pre-incubated for 5 mins prior to acetyl choline pulse at -70 mV potential by two-electrode voltage clamp assay
[7] = biological target: Neuronal acetylcholine receptor; alpha4/beta2 (Rattus norvegicus) (UniProt P09483+P12390); assay: Antagonist activity at rat alpha4beta2 nACHR expressed in Xenopus laevis oocytes assessed as inhibition of acetyl choline-induced membrane currents at 10 uM pre-incubated for 5 mins prior to acetyl choline pulse at -70 mV potential by two-electrode voltage clamp assay
[8] = biological target: Nicotinic acetylcholine receptor alpha6/alpha3/beta4 (Rattus norvegicus) (UniProt P04757+P12392+P43143); assay: Antagonist activity at rat alpha6/alpha3beta4 nAChR nACHR expressed in Xenopus laevis oocytes assessed as inhibition of acetyl choline-induced membrane currents at 10 uM pre-incubated for 5 mins prior to acetyl choline pulse at -70 mV potential by two-electrode voltage clamp assay; assay type: cell-based

| SMILES | Ratio IC50 (Rattus norvegicus) | further results |
| --- | --- | --- |
| CC[C@H](C)[C@@H]1NC(=O)[C@@H]2CCCN2C(=O)[C@H](CO)NC(=O)[C@H](CCSC)NC(=O)[C@H](C)NC(=O)[C@@H](CO)NC(=O)[C@@H]2CSSC[C@H](NC(=O)CN)C(=O)N[C@@H](CSSC[C@@H](C(N)=O)NC1=O)C(=O)N[C@@H](CO)C(=O)N[C@@H](Cc1cnc[nH]1)C(=O)N1CCC[C@H]1C(=O)N[C@@H](C(C)C)C(=O)N2 | 4.2 |  |
| CC[C@H](C)[C@@H]1NC(=O)[C@@H]2CCCN2C(=O)[C@H](CO)NC(=O)[C@H](CCSC)NC(=O)[C@H](C)NC(=O)[C@H](C)NC(=O)[C@@H]2CSSC[C@H](NC(=O)CN)C(=O)N[C@@H](CSSC[C@@H](C(N)=O)NC1=O)C(=O)N[C@@H](CO)C(=O)N[C@@H](Cc1cnc[nH]1)C(=O)N1CCC[C@H]1C(=O)N[C@@H](C(C)C)C(=O)N2 | 46 |  |
| CC[C@H](C)[C@@H]1NC(=O)[C@@H]2CCCN2C(=O)[C@H](CO)NC(=O)[C@H](CCSC)NC(=O)[C@H](C)NC(=O)[C@H]([C@@H](C)O)NC(=O)[C@@H]2CSSC[C@H](NC(=O)CN)C(=O)N[C@@H](CSSC[C@@H](C(N)=O)NC1=O)C(=O)N[C@@H](CO)C(=O)N[C@@H](Cc1cnc[nH]1)C(=O)N1CCC[C@H]1C(=O)N[C@@H](C(C)C)C(=O)N2 | 6.8 |  |
| CCC1NC(=O)[C@@H]2CSSC[C@H](NC(=O)CN)C(=O)N[C@@H](CSSC[C@@H](C(N)=O)NC(=O)[C@H]([C@@H](C)CC)NC(=O)[C@@H]3CCCN3C(=O)[C@H](CO)NC(=O)[C@H](CCSC)NC(=O)[C@H](C)NC1=O)C(=O)N[C@@H](CO)C(=O)N[C@@H](Cc1cnc[nH]1)C(=O)N1CCC[C@H]1C(=O)N[C@@H](C(C)C)C(=O)N2 (some centres not stated) | 3.3 |  |
| CC[C@H](C)[C@@H]1NC(=O)[C@@H]2CCCN2C(=O)[C@H](CO)NC(=O)[C@H](CCSC)NC(=O)[C@H](C)NC(=O)[C@H](CCCCN)NC(=O)[C@@H]2CSSC[C@H](NC(=O)CN)C(=O)N[C@@H](CSSC[C@@H](C(N)=O)NC1=O)C(=O)N[C@@H](CO)C(=O)N[C@@H](Cc1cnc[nH]1)C(=O)N1CCC[C@H]1C(=O)N[C@@H](C(C)C)C(=O)N2 |  | inhibition [1]: < 50%; inhibition [2]: < 50%; inhibition [3]: < 50%; inhibition [4]: < 50%; inhibition [5]: < 50%; inhibition [6]: < 50%; inhibition [7]: < 50%; inhibition [8]: < 50% |
| CC[C@H](C)[C@@H]1NC(=O)[C@@H]2CCCN2C(=O)[C@H](CO)NC(=O)[C@H](CCSC)NC(=O)[C@H](C)NC(=O)[C@H](CCCNC(=N)N)NC(=O)[C@@H]2CSSC[C@H](NC(=O)CN)C(=O)N[C@@H](CSSC[C@@H](C(N)=O)NC1=O)C(=O)N[C@@H](CO)C(=O)N[C@@H](Cc1cnc[nH]1)C(=O)N1CCC[C@H]1C(=O)N[C@@H](C(C)C)C(=O)N2 | 65 |  |
| CC[C@H](C)[C@@H]1NC(=O)[C@@H]2CCCN2C(=O)[C@H](CO)NC(=O)[C@H](CCSC)NC(=O)[C@H](C)NC(=O)[C@H](CC(C)C)NC(=O)[C@@H]2CSSC[C@H](NC(=O)CN)C(=O)N[C@@H](CSSC[C@@H](C(N)=O)NC1=O)C(=O)N[C@@H](CO)C(=O)N[C@@H](Cc1cnc[nH]1)C(=O)N1CCC[C@H]1C(=O)N[C@@H](C(C)C)C(=O)N2 | 2.1 |  |
| CC[C@H](C)[C@@H]1NC(=O)[C@@H]2CCCN2C(=O)[C@H](CO)NC(=O)[C@H](CCSC)NC(=O)[C@H](C)NC(=O)[C@H](Cc2ccc(O)cc2)NC(=O)[C@@H]2CSSC[C@H](NC(=O)CN)C(=O)N[C@@H](CSSC[C@@H](C(N)=O)NC1=O)C(=O)N[C@@H](CO)C(=O)N[C@@H](Cc1cnc[nH]1)C(=O)N1CCC[C@H]1C(=O)N[C@@H](C(C)C)C(=O)N2 | 2.9 |  |
| CC[C@H](C)[C@@H]1NC(=O)[C@@H]2CCCN2C(=O)[C@H](CO)NC(=O)[C@H](CCSC)NC(=O)[C@H](C)NC(=O)[C@H](CO)NC(=O)[C@@H]2CSSC[C@H](NC(=O)CN)C(=O)N[C@@H](CSSC[C@@H](C(N)=O)NC1=O)C(=O)N[C@@H](CO)C(=O)N[C@@H](Cc1cnc[nH]1)C(=O)N1CCC[C@H]1C(=O)N[C@@H](C(C)C)C(=O)N2 | 9.4 |  |
| CC[C@H](C)[C@@H]1NC(=O)[C@@H]2CCCN2C(=O)[C@H](CO)NC(=O)[C@H](CCSC)NC(=O)[C@H](C)NC(=O)[C@@H](CCCNC(=N)N)NC(=O)[C@@H]2CSSC[C@H](NC(=O)CN)C(=O)N[C@@H](CSSC[C@@H](C(N)=O)NC1=O)C(=O)N[C@@H](CO)C(=O)N[C@@H](Cc1cnc[nH]1)C(=O)N1CCC[C@H]1C(=O)N[C@@H](C(C)C)C(=O)N2 | 8.3 |  |
